A mixed list of measured activities; the numbers were collected in NIAID ChemDB.

Shared fields: tests in culture; agent: HIV-1; cell line: CEM; measure: EC50

Neighbouring rows are from separate reports. ECn: concentration that inhibits the pathogen or its effect by n%. Blank or dashed fields: not listed here.

structure,strain or isolate,changes,method,setting,value
CC(C)Nc1cccnc1N1CCN(C(=O)c2cc3cc(NS(C)(=O)=O)ccc3[nH]2)CC1,J-2 (RT-Y181C),RT-Y181C,cytopathic effect,-,0.0075 µg/mL
O=c1[nH]cnc2c1ncn2[C@H]1CC[C@@H](CO)O1,IIIB,-,syncytia,-,1.8 µg/mL
CCCCCCCCCCCC(=O)NCC(COP(=O)(O)OC[C@H]1O[C@@H](n2cc(C)c(=O)[nH]c2=O)C[C@@H]1N=[N+]=[N-])OCCCCCCCC,IIIB,-,syncytia,-,<0.08 µM
Cc1cc(N[C@H](C)c2cccc3ccccc23)c(C(=O)C(Cl)Cl)c(=O)o1,IIIB,-,MTT,-,>10 µM
Cc1cn([C@@H]2O[C@H](CO[Si](C)(C)C(C)(C)C)[C@@]3(OS(=O)(=O)C=C3N)[C@H]2O[Si](C)(C)C(C)(C)C)c(=O)[nH]c1=O,IIIB nevirapine-resistant (RT Y181C),RT-Y181C,syncytia,-,2.5 µM
CC(C)(C)[Si](C)(C)OC[C@H]1O[C@@H](n2nncc2CBr)[C@H](O[Si](C)(C)C(C)(C)C)C12OS(=O)(=O)C=C2N,IIIB,-,syncytia,-,1.3 µM
CC[C@H]1C(=O)Nc2ccc(F)cc2N1C(=O)OC(C)C,J-2 (RT-Y181C),RT-Y181C,cytopathic effect,-,0.009 µg/mL
CC(C)=CCN1Cc2cc(Cl)cc3[nH]c(=S)n(c23)C[C@@H]1C,HXB2,RT-M41L T215Y,syncytia,-,0.065 µg/mL
Cc1cn([C@H]2C[C@H](N=[N+]=[N-])[C@@H](CO)O2)c(=O)[nH]c1=O,IIIB,-,syncytia,-,0.003 µM
Cc1ccnc2c1N(CN1CCN(c3ccc(F)cc3)CC1)C(=O)c1cccnc1N2C1CC1,-,-,cytopathic effect / XTT,-,0.0318 µM
Cc1ccc(Nc2nc(NS(=O)(=O)c3cc(C(=O)Nc4ccc(Cl)cc4)c(Cl)cc3S)n[nH]2)cc1,RF,-,cytopathic effect / XTT,-,>200 µM
CC(C)Nc1cccnc1N1CCN(C(=O)c2cc3cc(NS(C)(=O)=O)ccc3[nH]2)CC1,NNRTI-resistant,RT-Y181C,cytopathic effect,-,0.93 µM
Cc1ccc2c(c1)C(=O)N1CSCC1C(=O)S2,RF,-,cytopathic effect / XTT,-,>35 µM
CCCCCCCCCCOC(CNC(=O)CCCCCCCCC)COP(=O)([O-])OCC[N+](C)(C)C,G-691 POST-AZT,-,syncytia,-,0.15 µM
Nc1ncnc2c1ncn2CCOCP(=O)(O)O,IIIB TIBO R82913 STR-B02 (RT L100I E138K),RT-L100I E138K,syncytia,-,17 µM
Cc1cn([C@H]2C[C@H](N=[N+]=[N-])[C@@H](CO)O2)c(=O)[nH]c1=O,IIIB,-,cytopathic effect / MTT,-,0.0045 µM
COC(=O)[C@H](C)NP(=O)(OC[C@@H]1O[C@H](n2ccc(N)nc2=O)CS1)Oc1ccccc1,IIIB,-,syncytia,-,2.5 µM
CCOC(=O)c1cn([C@@H]2O[C@H](CO[Si](C)(C)C(C)(C)C)C3(OS(=O)(=O)C=C3N)[C@H]2O[Si](C)(C)C(C)(C)C)nn1,HE,-,p24,-,0.28 µM
CCCc1c(O)cccc1C(=O)N[C@@H](Cc1ccccc1)[C@H](O)C(=O)N1C[C@@H](Cl)C[C@H]1C(=O)NC(C)(C)C,IIIB,-,-,-,<0.23 µM
Cc1cc(S(=O)(=O)/N=C(\NN)Nc2ccc(Cl)cc2)c(S)cc1Cl,RF,-,cytopathic effect / XTT,-,>10 µM
Cc1cc(S(=O)(=O)CCc2cccc3ccccc23)cc(=O)o1,IIIB,-,MTT,-,>2 µM
Cc1cn([C@@H]2O[C@H](CO[Si](C)(C)C(C)(C)C)C3(OS(=O)(=O)C=C3N)[C@H]2O[Si](C)(C)C(C)(C)C)c(=O)n(C)c1=O,NNRTI-resistant,RT-L100I,cytopathic effect,-,0.18 µM
CCCCCCCCCCCC(=O)NCC(COP(=O)([O-])OCC[N+](C)(C)C)OCCCCCC,IIIB,-,syncytia,-,0.21 µM
Nc1ncnc2c1ncn2[C@H]1CC[C@@H](CO)O1,LAV-1,-,virus yield,-,<1 µM
CCc1c(NCc2cccc3ccccc23)cc(C)oc1=O,IIIB,-,MTT,-,>10 µM
Cc1ccc(O)c(C)c1C(=O)N[C@@H](Cc1ccccc1)[C@H](O)C(=O)N1C[C@@H](Cl)C[C@H]1C(=O)NC(C)(C)C,IIIB,-,-,-,<0.105 µM
CCCCCCCCCCCC(=O)NCC(COP(=O)([O-])OCCC[N+](C)(C)C)OCCCCCCCC,IIIB,-,syncytia,-,1.02 µM
CC(C)=CCN1Cc2cccc3[nH]c(=S)n(c23)C[C@@H]1C,IIIB TIBO R82913 STR-1 (RT L100I Y181C),RT-L100I Y181C,syncytia,-,≥5 µM
Cc1cc(NCCc2c[nH]c3ccccc23)cc(=O)o1,IIIB,-,MTT,-,25 µM
CCc1c(O)cccc1C(=O)N[C@@H](Cc1ccccc1)[C@H](O)C(=O)N1C[C@@H](Cl)C[C@H]1C(=O)NC(C)(C)C,IIIB,-,-,-,<0.12 µM
O=c1[nH]cnc2c1ncn2[C@H]1CC[C@@H](CO)O1,IIIB/LAI,-,flow cytometry,-,1.4 µM
CCc1c(SCc2cccc3ccccc23)cc(C)oc1=O,IIIB,-,MTT,-,>10 µM
CCOCn1c(Cc2ccccc2)c(C(C)C)c(=O)[nH]c1=O,Y-1 (RT-K103N),RT-K103N,cytopathic effect,-,0.6 µg/mL
Cc1ccnc2c1N(CN1CCN(c3cccc(Cl)c3)CC1)C(=O)c1cccnc1N2C1CC1,-,-,cytopathic effect / XTT,-,0.0318 µM
Cc1cc(S(=O)(=O)Nc2nc(N)nc(N3CCOCC3)n2)c(SCC(=O)O)cc1Cl,RF,-,cytopathic effect / XTT,-,>200 µM
CN(C)CCCNC(=O)c1cc(NC(=O)c2cc(NC(=O)c3cc(NC(=O)c4ccc(C(=O)Nc5cc(C(=O)Nc6cc(C(=O)Nc7cc(C(=O)NCCCN(C)C)n(C)c7)n(C)c6)n(C)c5)cc4)cn3C)cn2C)cn1C,-,-,cytopathic effect / XTT,-,>100 µM
Cc1ccnc2c1N(CN1CCN(c3ccc([N+](=O)[O-])cc3)CC1)C(=O)c1cccnc1N2C1CC1,-,-,cytopathic effect / XTT,-,0.12 µM
CC(C)Nc1cccnc1N1CCN(C(=O)c2cc3cc(NS(C)(=O)=O)ccc3[nH]2)CC1,HXB2,RT-M41L T215Y,syncytia,-,0.013 µg/mL
Cc1ccnc2c1N(CN1CCN(c3ccccc3)CC1)C(=O)c1cccnc1N2C1CC1,-,-,cytopathic effect / XTT,-,0.0636 µM
Cc1c(F)cccc1C(=O)N[C@@H](Cc1ccccc1)[C@H](O)C(=O)N1C[C@@H](Cl)C[C@H]1C(=O)NC(C)(C)C,IIIB,-,-,-,>0.5 µM
COC(=O)c1cnnn1[C@@H]1O[C@H](CO[Si](C)(C)C(C)(C)C)C2(OS(=O)(=O)C=C2N)[C@H]1O[Si](C)(C)C(C)(C)C,HE,-,p24,-,0.45 µM
Cc1cc(S(=O)(=O)Nc2n[nH]c(N)n2)c(S)cc1Cl,RF,-,cytopathic effect / XTT,-,>200 µM
Cc1ccnc2c1NC(=O)c1cccnc1N2C1CC1,HXB2,RT-M41L T215Y,syncytia,-,0.2 µg/mL
Cc1cc(S(=O)(=O)Nc2n[nH]c(Nc3ccc4ccccc4c3)n2)c(S)cc1Cl,RF,-,cytopathic effect / XTT,-,>200 µM
CN=C1CN=C(c2ccc[nH]2)c2cc(Cl)ccc2N1,IIIB,-,cytopathic effect / MTT,-,0.95 µM
Cc1ccnc2c1N(CN1CCNCC1)C(=O)c1cccnc1N2C1CC1,-,-,cytopathic effect / XTT,-,0.62 µM
NNC(=O)c1ccccc1SSc1ccccc1C(=O)NN,RF,-,cytopathic effect / XTT,-,1.51 µM
CN(C)CCCNC(=O)c1cc(NC(=O)c2cc(NC(=O)c3cc(NC(=O)c4ccccc4C(=O)O)cn3C)cn2C)cn1C,-,-,cytopathic effect / XTT,-,>200 µM
CCNC(=S)N/N=C(\c1ccccc1)c1ccccn1,VSV-G-pseudotyped NL4-3,(delta)vpr,luciferase,-,0.075 µM
Cc1cc(S(=O)(=O)Nc2n[nH]c(Nc3ccccc3)n2)c(SCC(=O)O)cc1Cl,RF,-,cytopathic effect / XTT,-,>200 µM
Cc1cc(N[C@@H](C)c2cccc3ccccc23)c(C(=O)C(Cl)Cl)c(=O)o1,IIIB,-,MTT,-,>2 µM
CC(=O)OC[C@H]1O[C@@H](n2cc(C)c(=O)[nH]c2=O)C[C@@H]1N(C)OC(C)=O,IIIB,-,syncytia,-,>250 µg/mL
CCCCCCCCCCCCOC(CNC(=O)CCCCCCCCCCC)COP(=O)([O-])OCC[N+](C)(C)C,IIIB,-,syncytia,-,0.47 µM
CCOC(OCC)c1cnnn1[C@@H]1O[C@H](CO[Si](C)(C)C(C)(C)C)C2(OS(=O)(=O)C=C2N)[C@H]1O[Si](C)(C)C(C)(C)C,IIIB,-,syncytia,-,150 µM
C=CCOC(=O)CCCCCCC,-,-,syncytia,-,30 µM
Cc1ccc2nnc(NS(=O)(=O)c3cc(C)c(Cl)cc3S)n2n1,RF,-,cytopathic effect / XTT,-,>200 µM
Cc1cn([C@H]2C[C@H](N=[N+]=[N-])[C@@H](CO)O2)c(=O)[nH]c1=O,IIIB WT,-,cytopathic effect,-,0.003 µM
CCc1c(OCc2cccc3ccccc23)cc(C)oc1=O,IIIB,-,MTT,-,>0.4 µM
Nc1ncnc2c1ncn2CC(CF)OCP(=O)(O)O,IIIB nevirapine-resistant (RT Y181C),RT-Y181C,syncytia,-,10 µM
NC(=S)N/N=C(\c1ccccc1)c1ccccn1,VSV-G-pseudotyped NL4-3,(delta)vpr,luciferase,-,0.0016 µM
Cc1cn([C@H]2C=C[C@@H](CO)O2)c(=O)[nH]c1=O,pNL4-3,-,p24,4 d,0.27 µM
Nc1ncnc2c1ncn2[C@H]1CC[C@@H](CO)O1,IIIB,-,syncytia,-,3.7 µM
Nc1nc2c(ncn2[C@H]2CC[C@@H](CO)O2)c(=O)[nH]1,IIIB TIBO R82150-resistant (RT L100I),RT-L100I,syncytia,-,1 µM
COC(=O)[C@H](C)NP(=O)(OC[C@@H]1CC[C@H](n2ccc(N)nc2=O)O1)Oc1ccccc1,IIIB,-,syncytia,-,0.6 µM
C=CCOC(=O)CCC,-,-,syncytia,-,45 µM

The last 6 rows once more:

NC(=S)N/N=C(\c1ccccc1)c1ccccn1 ; strain or isolate: VSV-G-pseudotyped NL4-3 ; changes: (delta)vpr ; method: luciferase ; value: 0.0016 µM
Cc1cn([C@H]2C=C[C@@H](CO)O2)c(=O)[nH]c1=O ; strain or isolate: pNL4-3 ; method: p24 ; setting: 4 d ; value: 0.27 µM
Nc1ncnc2c1ncn2[C@H]1CC[C@@H](CO)O1 ; strain or isolate: IIIB ; method: syncytia ; value: 3.7 µM
Nc1nc2c(ncn2[C@H]2CC[C@@H](CO)O2)c(=O)[nH]1 ; strain or isolate: IIIB TIBO R82150-resistant (RT L100I) ; changes: RT-L100I ; method: syncytia ; value: 1 µM
COC(=O)[C@H](C)NP(=O)(OC[C@@H]1CC[C@H](n2ccc(N)nc2=O)O1)Oc1ccccc1 ; strain or isolate: IIIB ; method: syncytia ; value: 0.6 µM
C=CCOC(=O)CCC ; method: syncytia ; value: 45 µM